Results taken from patent US9920069B2, “Compounds for treatment of fluoroquinolone-resistant bacteria” (The Board of Trustees of the University of Illinois, priority 2014, dated 2018).
Values after ≈ are worked out from the molar mass of the structure shown. Like-named read-outs stand apart in the source and are kept apart here.

System: S. aureus NRS3 (S84L GyrA and S80F ParC)
Assay: microbe, parasite or virus in culture
Format: cell-based
[1] = Staphylococcus aureus, NRS3; read-out: MIC against S. aureus NRS3
[2] = Staphylococcus aureus, NRS3, read-out: MIC against S. aureus NRS3

SMILES	MIC [1]	MIC [2]
CCCCCn1c(=O)cc(C)c2cc3c(C)cc(=O)n4c3c(c21)OC4 [Compound 9]	0.25 µg/mL (≈ 0.739 µM)	
CN[C@H](CC(C)C)C(=O)N[C@H]1C(=O)N[C@@H](CC(N)=O)C(=O)N[C@H]2C(=O)N[C@H]3C(=O)N[C@H](C(=O)N[C@H](C(=O)O)c4cc(O)cc(O)c4-c4cc3ccc4O)[C@H](O)c3ccc(c(Cl)c3)Oc3cc2cc(c3O[C@@H]2O[C@H](CO)[C@@H](O)[C@H](O)[C@H]2O[C@H]2C[C@](C)(N)[C@H](O)[C@H](C)O2)Oc2ccc(cc2Cl)[C@H]1O [VANC, vancomycin, reference compound]		8 µg/mL (≈ 5.52 µM)
CCCCCCn1c(=O)cc(C)c2cc3c(C)cc(=O)n4c3c(c21)OC4 [Compound 10]	1 µg/mL (≈ 2.84 µM)	
CCCCn1c(=O)cc(CCC)c2cc3c(CCC)cc(=O)n4c3c(c21)OC4 [Compound 15]	32 µg/mL (≈ 84.1 µM)	
CCCc1cc(=O)n(C)c2c3c4c(cc12)c(C)cc(=O)n4CO3 [Compound 7]	1 µg/mL (≈ 3.22 µM)	
Cc1cc(=O)n2c3c(c4c(cc13)c(C)cc(=O)n4CC(C)(C)C)OC2 [Compound 12]	16 µg/mL (≈ 47.3 µM)	
Cc1cc(=O)n(C)c2c3c4c(cc12)c(C)cc(=O)n4CO3 [DNM, deoxynybomycin]	0.03 µg/mL (≈ 0.106 µM)	
CCCn1c(=O)cc(C)c2cc3c(C)cc(=O)n4c3c(c21)OC4 [DNM-8]	0.12 µg/mL (≈ 0.387 µM)	
CCn1c(=O)cc(C)c2cc3c(C)cc(=O)n4c3c(c21)OC4 [DNM-2]	0.03 µg/mL (≈ 0.101 µM)	
Cc1cc(=O)n(C)c2c3c4c(cc12)c(C)cc(=O)n4C(C)O3 (centres unmarked) [Compound 5]	0.03 µg/mL (≈ 0.101 µM)	
Cc1cc(=O)n2c3c(c4c(cc13)c(C)cc(=O)n4CC(C)C)OC2 [Compound 11]	2 µg/mL (≈ 6.17 µM)	
CC(=O)NC[C@H]1CN(c2ccc(N3CCOCC3)c(F)c2)C(=O)O1 [LINEZ, linezolid, reference compound]		0.5 µg/mL (≈ 1.48 µM)
CCc1cc(=O)n(C)c2c3c4c(cc12)c(C)cc(=O)n4CO3 [Compound 4]	0.25 µg/mL (≈ 0.844 µM)	
CCc1cc(=O)n2c3c(c4c(cc13)c(C)cc(=O)n4C)OC2 [DNM-3]	0.12 µg/mL (≈ 0.405 µM)	
CCCc1cc(=O)n2c3c(c4c(cc13)c(C)cc(=O)n4C)OC2 [Compound 6]	0.25 µg/mL (≈ 0.806 µM)	
CCCc1cc(=O)n(C)c2c3c4c(cc12)c(CCC)cc(=O)n4CO3 [Compound 14]	32 µg/mL (≈ 94.6 µM)	
CCc1cc(=O)n(C)c2c3c4c(cc12)c(CC)cc(=O)n4CO3 [Compound 13]	16 µg/mL (≈ 51.6 µM)	
